Data set [1] deals with the molecule itself. The data set can be described thus: SDS-PAGE, anti-GST Western blot (FIG. 2B); homo-oligomers. (In general: In western blotting, separated proteins are transferred to a membrane and probed.)
Data set [2] deals with the molecule itself. The data set can be described thus: SDS-PAGE, Western blot (FIG. 3A); homo-oligomers, weaker than the non-mutated form.

B1: GST-DP-TME1 chimera (other)
chain: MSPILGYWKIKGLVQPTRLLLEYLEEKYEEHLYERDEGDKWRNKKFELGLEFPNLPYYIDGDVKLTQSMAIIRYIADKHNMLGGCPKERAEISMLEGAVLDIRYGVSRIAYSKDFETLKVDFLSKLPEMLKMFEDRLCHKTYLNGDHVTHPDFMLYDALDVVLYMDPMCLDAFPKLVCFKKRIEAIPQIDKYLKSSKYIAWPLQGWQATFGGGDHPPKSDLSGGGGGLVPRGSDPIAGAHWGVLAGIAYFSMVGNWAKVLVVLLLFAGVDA
notes: Expressed in E. coli BL21 Gold(DE3)pLysS from pGEXKT-DP-TME1; analysed in whole lysate by SDS-PAGE and Western blot; The oligomeric state varies (monomer, dimer, trimer); also called G-DP-TME1
In the case of B1, the binding result in data set [1] was “binds”.

B2: GST-DP-TME2 chimera (other)
chain: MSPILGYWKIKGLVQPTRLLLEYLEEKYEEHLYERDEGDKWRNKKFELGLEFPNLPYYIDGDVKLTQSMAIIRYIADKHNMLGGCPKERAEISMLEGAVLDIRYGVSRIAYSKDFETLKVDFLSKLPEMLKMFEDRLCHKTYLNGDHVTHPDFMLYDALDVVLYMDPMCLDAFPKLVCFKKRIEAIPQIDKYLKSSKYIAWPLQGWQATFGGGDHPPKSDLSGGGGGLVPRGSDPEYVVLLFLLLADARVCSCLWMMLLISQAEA
notes: also called G-DP-TME2
Consider B2, for which the binding result in data set [1] is reported as “binds”.

B3: GST-DP-TME2-C731/C733A chimera (other)
chain: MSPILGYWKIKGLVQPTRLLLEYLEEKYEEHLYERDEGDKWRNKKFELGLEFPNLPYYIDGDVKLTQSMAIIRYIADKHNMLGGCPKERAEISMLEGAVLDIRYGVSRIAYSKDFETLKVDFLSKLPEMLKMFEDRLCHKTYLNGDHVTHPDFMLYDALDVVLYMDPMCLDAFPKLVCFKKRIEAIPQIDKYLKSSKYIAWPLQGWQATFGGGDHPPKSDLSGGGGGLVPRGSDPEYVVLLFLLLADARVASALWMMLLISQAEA
notes: Double mutant of GST-DP-TME2; also called GST-DP-TME2-C731/733A; GST-TME2-C731/733A
Consider B3, for which the binding result in data set [2] was “binds”.
